Measured values from several laboratories, pooled; numbers as filed in NIAID ChemDB.

Shared fields: tests in culture; species: Human cytomegalovirus

Conditions beyond the fields shown may differ between rows.

{"compound": "CCCCCCCCCCCCCCCCOCCCOP(=O)(O)CO[C@H](CO)Cn1ccc(N)nc1=O", "method": "plaque count", "measure": "EC50", "strain or isolate": "TOWNE", "cell line": "MRC-5", "result": "0.0009 µM"}
{"compound": "Nc1nc2c(ncn2COC(CO)CO)c(=O)[nH]1", "method": "virus yield", "measure": "EC90", "strain or isolate": "TOWNE", "result": "0.7 µM"}
{"compound": "Nc1ccn(C[C@@H](CO)OCP(=O)(O)O)c(=O)n1", "method": "plaque count", "measure": "EC50", "strain or isolate": "GDGP53 (drug-resistant mutant)", "cell line": "MRC-5", "result": "15.7 µM"}
{"compound": "Cc1nc(N2CCC[C@H]2COC(C)C)nc(-n2ccnc2)c1[N+](=O)[O-]", "measure": "EC50", "result": "0.13 µM"}
{"compound": "Cc1ccn2c(CSCc3ccccc3)c(C(C)(C)C)nc2c1", "method": "cytopathic effect", "measure": "EC50", "strain or isolate": "AD169", "cell line": "HEL", "result": "1 µg/mL"}
{"compound": "Cc1cn(C(CF)CCCO)c(=O)[nH]c1=O", "method": "cytopathic effect", "measure": "EC50", "strain or isolate": "AD169", "cell line": "HEL", "result": ">50 µg/mL"}
{"compound": "Nc1nc2c(ncn2/C=C2/CC2(CO)CO)c(=O)[nH]1", "method": "plaque count", "measure": "EC50", "strain or isolate": "GDGRK17 (ganciclovir- foscarnet-resistant)", "cell line": "HFF", "result": "2.4 µM"}
{"compound": "OC[C@H]1O[C@@H](n2c(Br)nc3cc(Cl)c(Cl)cc32)[C@H](O)[C@@H]1O", "method": "plaque count", "measure": "EC50", "strain or isolate": "Isolate B11 mutation D344E", "cell line": "HFF", "result": "12 µM"}
{"compound": "O=C1c2ccccc2C(=O)N1CCC1C2CC3CC(C2)CC1C3", "method": "plaque count", "measure": "EC50", "strain or isolate": "DAVIS", "cell line": "HEL", "result": ">100 µg/mL"}
{"compound": "Cc1cn(CCCC(O)CF)c(=O)[nH]c1=O", "method": "cytopathic effect", "measure": "EC50", "strain or isolate": "AD169", "cell line": "HEL", "result": ">50 µg/mL"}
{"compound": "CC/C=C\\Cn1c(=O)sc2c(=O)[nH]c(N)nc21", "method": "plaque count", "measure": "EC50", "strain or isolate": "AD169", "result": "<4 µM"}
{"compound": "Cc1c(S(=O)(=O)c2ccc(Cl)cc2)c(NC(=O)C(F)(F)F)n(Cc2ccc(Cl)cc2)c1C", "method": "cytopathic effect", "measure": "EC50", "strain or isolate": "AD169", "cell line": "HEL", "result": "0.5 µg/mL"}
{"compound": "Cc1nc(N2CCCC(C)C2)nc(-n2ccnc2)c1[N+](=O)[O-]", "measure": "EC50", "result": "0.23 µM"}
{"compound": "CCCc1cn([C@H]2C[C@H](O)[C@@H](CO)O2)c(=S)nc1N", "method": "plaque count", "measure": "EC50", "strain or isolate": "T-137", "cell line": "MRC-5", "result": ">277.4 µM"}
{"compound": "Cc1ccn2c(CSCc3ccccc3)c(-c3ccccn3)nc2c1", "method": "cytopathic effect", "measure": "EC50", "strain or isolate": "AD169", "cell line": "HEL", "result": "0.6 µg/mL"}
{"compound": "O=c1[nH]c(=S)n([C@@H]2O[C@H](CO)[C@@H](O)[C@@H]2O)cc1/C=C/c1ccccc1", "method": "plaque count", "measure": "EC50", "strain or isolate": "AD169", "cell line": "MRC-5", "result": ">213 µM"}
{"compound": "COc1nc2cc(Cl)c(Cl)cc2n1[C@H]1C[C@H](O)[C@@H](CO)O1", "method": "plaque count", "measure": "EC50", "strain or isolate": "TOWNE", "cell line": "HFF", "result": ">100 µM"}
{"compound": "Cc1c(Br)cc(Br)c2ncc(CSCCc3ccccc3)n12", "method": "plaque count", "measure": "EC50", "strain or isolate": "AD169", "cell line": "HEL", "result": "1.1 µg/mL"}
{"compound": "N#CC1C(c2ccccc2)Nc2ccccc2S1(=O)=O", "method": "cytopathic effect", "measure": "EC50", "strain or isolate": "DAVIS", "cell line": "HEL", "result": ">20 µg/mL"}
{"compound": "Cc1c(Br)cc(Br)c2ncc(CSCc3ccccc3Cl)n12", "method": "plaque count", "measure": "EC50", "strain or isolate": "DAVIS", "cell line": "HEL", "result": ">5 µg/mL"}
{"compound": "Nc1nc2c(ncn2COC(CO)CO)c(=O)[nH]1", "method": "virus yield", "measure": "EC50", "strain or isolate": "2916R (1263W94-resistant)", "cell line": "HFF", "result": "<1 µM"}
{"compound": "Nc1nc2c(ncn2COC(CO)CO)c(=O)[nH]1", "method": "plaque count", "measure": "EC50", "strain or isolate": "Isolate C4 mutations D344E + Q204R", "cell line": "HFF", "result": "5.5 µM"}
{"compound": "Cc1cn([C@H]2C[C@H](O)[C@@H](CO)O2)c(=S)nc1N", "method": "plaque count", "measure": "EC50", "strain or isolate": "T-137", "cell line": "MRC-5", "result": ">277.4 µM"}
{"compound": "Nc1nc2c(ncn2COC(CO)CO)c(=O)[nH]1", "method": "hybridisation", "measure": "EC50", "strain or isolate": "C8912", "cell line": "MRC-5", "result": "0.5 µM"}
{"compound": "OC[C@H]1O[C@@H](n2c(Br)nc3cc(Cl)c(Cl)cc32)[C@H](O)[C@@H]1O", "method": "virus yield", "measure": "EC50", "strain or isolate": "2916R (1263W94-resistant)", "cell line": "HFF", "result": "<46 µM"}
{"compound": "COc1ccccc1CNC(=O)C1=Cc2ccncc2CC1", "method": "plaque count", "measure": "EC50", "strain or isolate": "C8805-37", "cell line": "MRC-5", "result": "27.1 µM"}
{"compound": "Cc1nc(NC2CCc3c(F)ccc(F)c32)nc(-n2ccnc2C)c1[N+](=O)[O-]", "measure": "EC50", "result": "0.06 µM"}
{"compound": "CCCCCCCCCCCCCCCCCCOCCOP(=O)(O)CO[C@H](CO)Cn1ccc(N)nc1=O", "method": "plaque count", "measure": "EC50", "strain or isolate": "C8708/17-1-1", "cell line": "MRC-5", "result": "0.001 µM"}
{"compound": "OC[C@H]1O[C@@H](n2c(Br)nc3cc(Cl)c(Cl)cc32)[C@H](O)[C@@H]1O", "method": "plaque count", "measure": "EC50", "strain or isolate": "D10 (D341E)", "result": "13 µM"}
{"compound": "Nc1nc2cc(Cl)c(Cl)cc2n1[C@H]1C[C@H](O)[C@@H](CO)O1", "method": "plaque count", "measure": "EC50", "strain or isolate": "TOWNE", "cell line": "HFF", "result": "30 µM"}
{"compound": "COC(=O)[C@H](C)NP(=O)(OC[C@H]1C/C1=C/n1cnc2c(OC)nc(N)nc21)Oc1ccccc1", "method": "cytopathic effect", "measure": "EC50", "strain or isolate": "AD169", "cell line": "HFF", "result": "0.22 µM"}
{"compound": "Cc1c(Br)cc(Br)c2ncc(CSCc3ccco3)n12", "method": "plaque count", "measure": "EC50", "strain or isolate": "AD169", "cell line": "HEL", "result": "2.9 µg/mL"}
{"compound": "Cc1nc(NC2Cc3c(F)ccc(F)c3C2)nc(-n2ccnc2)c1[N+](=O)[O-]", "measure": "EC50", "result": "0.15 µM"}
{"compound": "O=C1c2cccc([N+](=O)[O-])c2C(=O)N1C1C2CC3CC(C2)CC1C3", "method": "plaque count", "measure": "EC50", "strain or isolate": "AD169", "cell line": "HEL", "result": ">100 µg/mL"}
{"compound": "Cc1c(Br)cc(Br)c2ncc(CSCc3cccc(C(F)(F)F)c3)n12", "method": "plaque count", "measure": "EC50", "strain or isolate": "DAVIS", "cell line": "HEL", "result": ">50 µg/mL"}
{"compound": "Cc1ccn2c(CSCc3ccccc3)c(-c3cccs3)nc2c1", "method": "cytopathic effect", "measure": "EC50", "strain or isolate": "AD169", "cell line": "HEL", "result": "2.7 µg/mL"}
{"compound": "NC1=NCCN1CC(=O)O", "method": "plaque count", "measure": "EC50", "strain or isolate": "C8805-37 (ganciclovir-resistant)", "cell line": "MRC-5", "result": "8500 µM"}
{"compound": "Nc1ncnc2c1ncn2C=C1CC1CO", "method": "plaque count", "measure": "EC50", "strain or isolate": "RCdelta97", "cell line": "HFF", "result": "27.6 µM"}
{"compound": "O=C(NCc1ccc(Cl)cc1)c1c[nH]c2ccc(CCCO)cc2c1=O", "method": "plaque count", "measure": "EC50", "strain or isolate": "DAVIS", "result": "1 µM"}
{"compound": "COCCOCn1cc(C(N)=S)c2c(N)ncnc21", "method": "hybridisation", "measure": "EC50", "strain or isolate": "TOWNE", "result": "1.3 µM"}
{"compound": "N#CC1C(c2ccc(Cl)cc2)Nc2ccccc2S1(=O)=O", "method": "cytopathic effect", "measure": "EC50", "strain or isolate": "AD169", "cell line": "HEL", "result": "4.6 µg/mL"}
{"compound": "O=C1c2ccccc2[C@]2(O)C3C4C[C@H]5CC(C[C@H]3C5)C4N12", "method": "plaque count", "measure": "EC50", "strain or isolate": "AD169", "cell line": "HEL", "result": ">100 µg/mL"}
{"compound": "Cc1nc(NC2Cc3ccccc3C2)nc(-n2ccnc2C)c1[N+](=O)[O-]", "measure": "EC50", "result": "0.6 µM"}
{"compound": "CSc1nc2cc(Cl)c(Cl)cc2n1[C@H]1C[C@H](O)[C@@H](CO)O1", "method": "plaque count", "measure": "EC50", "strain or isolate": "TOWNE", "cell line": "HFF", "result": ">100 µM"}
{"compound": "Cc1ccc(CSCc2cnc3c(Br)cc(Br)c(C)n23)cc1", "method": "plaque count", "measure": "EC50", "strain or isolate": "DAVIS", "cell line": "HEL", "result": ">50 µg/mL"}
{"compound": "C=Cc1cn([C@H]2C[C@H](O)[C@@H](CO)O2)c(=S)[nH]c1=O", "method": "plaque count", "measure": "EC50", "strain or isolate": "AD169", "cell line": "MRC-5", "result": ">277.6 µM"}
{"compound": "Cc1cc(Br)cn2c(CSCc3ccccc3)cnc12", "method": "cytopathic effect", "measure": "EC50", "strain or isolate": "DAVIS", "cell line": "HEL", "result": ">20 µg/mL"}
{"compound": "Cc1nc(NC2CCc3c(F)cccc32)nc(-n2ccnc2)c1[N+](=O)[O-]", "measure": "EC50", "result": "0.125 µM"}
{"compound": "O=C(NCc1ccc(Cl)cc1)c1c[nH]c2c(F)cccc2c1=O", "method": "plaque count", "measure": "EC90", "strain or isolate": "AD169", "result": "27.1 µM"}
{"compound": "Nc1ncnc2c1ncn2C=C1CC1CO", "method": "plaque count", "measure": "EC50", "strain or isolate": "AD169", "cell line": "KB", "result": "2 µM"}
{"compound": "Cc1nc(NC2Cc3cc(F)c(F)cc3C2)nc(-n2ccnc2)c1[N+](=O)[O-]", "measure": "EC50", "result": "0.13 µM"}
{"compound": "O=C(NCCc1ccccc1)C1=Cc2ccncc2CC1", "method": "plaque count", "measure": "EC50", "strain or isolate": "C8704", "cell line": "MRC-5", "result": "5.8 µM"}
{"compound": "Cc1cc2nc(Cl)n([C@H]3C[C@H](O)[C@@H](CO)O3)c2cc1C", "method": "plaque count", "measure": "EC50", "strain or isolate": "TOWNE", "cell line": "HFF", "result": ">100 µM"}
{"compound": "Nc1nc2c(ncn2C=C2CC2CO)c(=O)[nH]1", "method": "plaque count", "measure": "EC50", "strain or isolate": "C8914-6", "cell line": "HFF", "result": "10.3 µM"}
{"compound": "Cc1ccn2c(CSCc3ccccc3)c(C34CC5CC(CC(C5)C3)C4)nc2c1", "method": "cytopathic effect", "measure": "EC50", "strain or isolate": "DAVIS", "cell line": "HEL", "result": ">0.5 µg/mL"}
{"compound": "Nc1nc2c(ncn2CCCC(O)CF)c(=O)[nH]1", "method": "cytopathic effect", "measure": "EC50", "strain or isolate": "DAVIS", "cell line": "HEL", "result": ">50 µg/mL"}
{"compound": "N#CC1C(c2ccccc2)Nc2sccc2S1(=O)=O", "method": "cytopathic effect", "measure": "EC50", "strain or isolate": "AD169", "cell line": "HEL", "result": "50 µg/mL"}
{"compound": "Nc1cccc2c1C(=O)N(C13CC4CC(CC(C4)C1)C3)C2=O", "method": "plaque count", "measure": "EC50", "strain or isolate": "DAVIS", "cell line": "HEL", "result": ">0.8 µg/mL"}
{"compound": "Nc1nc(NC2CC2)c2ncn(C=C3CC3CO)c2n1", "method": "plaque count", "measure": "EC50", "strain or isolate": "Coffman", "cell line": "HFF", "result": "3.1 µM"}
{"compound": "O=C(NCc1ccc(Cl)cc1)c1c[nH]c2ccc(CCCO)cc2c1=O", "method": "plaque count", "measure": "EC50", "strain or isolate": "GDGrP53", "result": "0.2 µM"}
{"compound": "Cc1nc(N2CCOC[C@@H]2C)nc(-n2ccnc2)c1[N+](=O)[O-]", "measure": "EC50", "result": "0.07 µM"}
{"compound": "CCc1cn([C@@H]2O[C@H](CO)[C@@H](O)[C@@H]2O)c(=S)nc1N", "method": "plaque count", "measure": "EC50", "strain or isolate": "93-1R", "cell line": "MRC-5", "result": ">264.9 µM"}
{"compound": "Cc1nc(N2CCOC[C@H]2C)nc(-n2ccnc2)c1[N+](=O)[O-]", "measure": "EC50", "result": "0.11 µM"}
{"compound": "CC(C)Oc1ccccc1CNC(=O)c1ccc2cnccc2n1", "method": "virus yield", "measure": "EC50", "strain or isolate": "TOWNE", "cell line": "HFF", "result": "1.8 µM"}

Repeating the final 5 entries:

compound | method | measure | strain or isolate | cell line | result
O=C(NCc1ccc(Cl)cc1)c1c[nH]c2ccc(CCCO)cc2c1=O | plaque count | EC50 | GDGrP53 |  | 0.2 µM
Cc1nc(N2CCOC[C@@H]2C)nc(-n2ccnc2)c1[N+](=O)[O-] |  | EC50 |  |  | 0.07 µM
CCc1cn([C@@H]2O[C@H](CO)[C@@H](O)[C@@H]2O)c(=S)nc1N | plaque count | EC50 | 93-1R | MRC-5 | >264.9 µM
Cc1nc(N2CCOC[C@H]2C)nc(-n2ccnc2)c1[N+](=O)[O-] |  | EC50 |  |  | 0.11 µM
CC(C)Oc1ccccc1CNC(=O)c1ccc2cnccc2n1 | virus yield | EC50 | TOWNE | HFF | 1.8 µM

Blank or dashed fields: not listed here. ECn: concentration that inhibits the pathogen or its effect by n%.